Experimental data: PubChem BioAssay AID504761 (Drosophila RNAi Screening Center, 2011)
The deposit covers about 22,000 reagents; below is a random part of those with a known target gene and a result. In the full data, 116 (0.52%) were called active. 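Calls depend on retest data that are not deposited; infection was ranked per plate without normalising between plates; the unit of the infection score is not given.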 Raw values are not corrected between plates. Further read-outs or replicates are left out here. Not given: the amount of reagent, the time to read-out.

- Test: 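Genome-wide fly cell screen for genes dengue virus requires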 (primary screen)
- Cells: D.Mel-2 cells from Drosophila
- Reagents: long dsRNA against Drosophila genes
- Challenge: infection with dengue virus type 2; dose and infection time not stated
- Measured: 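Per well on two replicate plates, imaging gave the percent of cells positive for viral envelope protein, ranked by infection, and a nuclear count of cells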
- Direction: infection score: higher = more virus-infected cells; cell count: higher = more cells in the well
- Hit rule: 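Very low infection ranking in both replicate wells (chance probability at most 0.065), then a retest showing infection dropped 1.5-fold or more at p below 0.05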
- Calls: active = confirmed: knock-down lowers infection; inactive = not picked or not confirmed

Strip (Striatin interacting protein) [DRSC08194] scored infection score, replicate 1 = 11.5; cell count, replicate 1 = 5762; inactive.
Strip (Striatin interacting protein) [DRSC29471] showed infection score, replicate 1 = 8.87; cell count, replicate 1 = 3945; inactive.
Depletion of CG17959 [DRSC18142] gave: infection score, replicate 1 = 2.32; cell count, replicate 1 = 6034; inactive.
Against CG17959 [DRSC28767], the entry reads infection score, replicate 1 = 0.77; cell count, replicate 1 = 388; inactive.
With knock-down of Alk (Anaplastic lymphoma kinase) [DRSC05918], the screen gave infection score, replicate 1 = 3.3; cell count, replicate 1 = 6552; inactive.
Alk (Anaplastic lymphoma kinase) [DRSC23342] scored infection score, replicate 1 = 1.41; cell count, replicate 1 = 6894; inactive.
CG5302 (retired record) [DRSC15764] gave infection score, replicate 1 = 3.94; cell count, replicate 1 = 6496; inactive.
CG5302 (retired record) [DRSC15765] scored infection score, replicate 1 = 9.46; cell count, replicate 1 = 6165; inactive.
For CG5302 (retired record) [DRSC22671], the entry reads infection score, replicate 1 = 1.28; cell count, replicate 1 = 6946; inactive.
Depletion of Fbp1 (Fat body protein 1) [DRSC11166] came out at: infection score, replicate 1 = 0.78; cell count, replicate 1 = 6022; inactive.
With knock-down of Fbp1 (Fat body protein 1) [DRSC26593] the results were infection score, replicate 1 = 0.58; cell count, replicate 1 = 6549; inactive.
norpA (no receptor potential A) [DRSC18806] gave infection score, replicate 1 = 3.57; cell count, replicate 1 = 6547; inactive.
Knock-down of HSPC300 (Haematopoietic stem/progenitor cell protein 300) [DRSC22880] gave: infection score, replicate 1 = 4.44; cell count, replicate 1 = 5453; inactive.
For CG5653 [DRSC10534], the entry reads infection score, replicate 1 = 1.58; cell count, replicate 1 = 6627; inactive.
CG5653 [DRSC29858] gave infection score, replicate 1 = 35.8; cell count, replicate 1 = 5409; inactive.
Nmdar2 (NMDA receptor 2) [DRSC18183] gave infection score, replicate 1 = 13.2; cell count, replicate 1 = 5938; inactive.
Knock-down of Nmdar2 (NMDA receptor 2) [DRSC18511] resulted in: infection score, replicate 1 = 1.78; cell count, replicate 1 = 841; inactive.
Nmdar2 (NMDA receptor 2) [DRSC18569] scored infection score, replicate 1 = 5.48; cell count, replicate 1 = 6199; inactive.
For HnRNP-K (Heterogeneous nuclear ribonucleoprotein K) [DRSC07585], the values are infection score, replicate 1 = 8.99; cell count, replicate 1 = 5350; inactive.
With knock-down of HnRNP-K (Heterogeneous nuclear ribonucleoprotein K) [DRSC22734], the screen gave infection score, replicate 1 = 1.71; cell count, replicate 1 = 6623; inactive.
Depletion of HnRNP-K (Heterogeneous nuclear ribonucleoprotein K) [DRSC24070] resulted in: infection score, replicate 1 = 1.44; cell count, replicate 1 = 5952; inactive.

2 entries from above, arranged by “cell count, replicate 1”, descending.
Nmdar2 (NMDA receptor 2) [DRSC18183] → infection score, replicate 1 = 13.2; cell count, replicate 1 = 5938; Call = inactive
Nmdar2 (NMDA receptor 2) [DRSC18511] → infection score, replicate 1 = 1.78; cell count, replicate 1 = 841; Call = inactive
